Compound potency records, mixed from different reports. Data source: NIAID ChemDB in PubChem.

All rows: tests in culture; species: Staphylococcus aureus; measure: MIC

a–b is a range or a potency band.

SMILES | strain | value
Nc1ccc(OC[C@H]2CN(c3ccc(C4=CCOCC4)c(F)c3)C(=O)O2)cn1 | 122 (novobiocin-resistant) | 4 µg/mL
CCn1cc(C(=O)O)c(=O)c2cc(F)c(N3CCNCC3)cc21 | - | 0.3 µg/mL
CC(=O)NC[C@H]1CN(c2ccc(NS(C)(=O)=O)c(F)c2)C(=O)O1 | ATCC 29213 (linezolid-resistant) | >64 µg/mL
CC(=O)NC[C@H]1CN(c2ccc(C(=O)Nc3ccncc3)c(F)c2)C(=O)O1 | ATCC 29213 (linezolid-resistant) | >64 µg/mL
O=C(CC(=O)Nc1ccc(F)cc1)Nc1ccc(F)cc1 | MI273 | >300 µM
Cn1cc(C(=O)O)c(=O)c2cc3cc(F)c(NC4CCCCC4)cc3nc21 | LF11C128 (quinolone-resistant) | 1 µg/mL
O=C(Nc1ccc(C(F)(F)F)cc1)Nc1ccc(C(F)(F)F)cc1 | MI273 | 53 µM
CNC(=O)N[C@H]1CCN(c2ccc(N3C[C@H](CNc4ccon4)OC3=O)cc2F)C1 | 122 (novobiocin-resistant) | 0.5 µg/mL
O=C(C(O)Cn1cccn1)N1CC=C(c2c(F)cc(N3C[C@H](COc4ccon4)OC3=O)cc2F)CC1 | 004 (methicillin quinolone-resistant) | 1 µg/mL
O=C(/C=C/c1ccc(Cl)cc1Cl)NC[C@H]1CN(c2ccc(N3CCOCC3)c(F)c2)C(=O)O1 | ATCC 29213 (linezolid-resistant) | >16 µg/mL
O=C1O[C@@H](COc2cnsn2)CN1c1ccc(-n2ccnc2)c(F)c1 | 078 (oxford) | 0.5 µg/mL
CC1NCc2cc(-c3c(F)cc4c(=O)c(C(=O)O)cn(C5CC5)c4c3OC(F)F)ccc21 | FDA209P | 0.0313 µg/mL
CC(=O)NC[C@H]1CN(c2ccc(C(=O)Nc3nncs3)c(F)c2)C(=O)O1 | ATCC 29213 (linezolid-resistant) | >64 µg/mL
COc1c(CN(C)C)cccc1C1OC(c2ccncc2)=NN1C(C)=Nc1ccccc1 | MTCC 121 | 6.25 µg/mL
CCN(CC)CCSc1ccc(N2C[C@H](CNC(C)=O)OC2=O)cc1F | ATCC 29213 (linezolid-resistant) | >64 µg/mL
CCCC[C@H](CC(=O)NO)C(=O)N1CCC[C@H]1C(=O)OC(C)(C)C | 3 strains | 1–4 µg/mL
O=C(NNC(=O)Nc1cc(C(F)(F)F)cc(C(F)(F)F)c1)Nc1ccccc1 | MI273 | >200 µM
O=C(C(O)Sc1ccccn1)N1CC=C(c2c(F)cc(N3C[C@H](COc4ccon4)OC3=O)cc2F)CC1 | 078 (oxford) | 0.5 µg/mL
CCNCCNc1cc2c(cc1F)c(=O)c(C(=O)O)cn2C1CC1 | ATCC 6538P | >100 µg/mL
O=C(CO)N1CC=C(c2c(F)cc(N3C[C@H](COc4ccon4)OC3=O)cc2F)CC1 | 004 (methicillin quinolone-resistant) | 0.5 µg/mL
COc1c(-c2ccc3c(c2)C(C)NC3)ccc2c(=O)c(C(=O)O)cn(C3CC3)c12 | FDA209P | 0.0625 µg/mL
O=C(CCOc1ccc(Cl)cc1Cl)NC[C@H]1CN(c2ccc(N3CCOCC3)c(F)c2)C(=O)O1 | ATCC 29213 (linezolid-resistant) | >32 µg/mL
C=CC(=O)NC[C@H]1CN(c2ccc(C3CCS(=O)(=O)CC3)c(F)c2)C(=O)O1 | UC9213 | 2 µg/mL
CC[C@H]1OC(=O)[C@H](C)C(=O)[C@H](C)[C@@H](O[C@@H]2O[C@H](C)C[C@H](N(C)C)[C@H]2O)[C@@]2(C)C[C@@H](C)C(=NC(C)=O)[C@H](C)C(OC/C(=C\C=C\c3cccc([N+](=O)[O-])c3)CO2)[C@]1(C)O | 27660 (erythromycin-resistant) | 0.25 µg/mL
CC(=O)NC[C@H]1CN(c2ccc(C(=O)Nc3cccnc3)c(F)c2)C(=O)O1 | ATCC 29213 (linezolid-resistant) | >64 µg/mL
O=C1O[C@@H](CNc2ccon2)CN1c1ccc(-n2cnc(CO)c2)c(F)c1 | 122 (novobiocin-resistant) | 0.5 µg/mL
O=C(O)NC[C@H]1CC(c2ccc(N3CCOCC3)c(F)c2)=NO1 | UC9213 | 4 µg/mL
CC1(C)CC(CNc2cc3c(cc2F)c(=O)c(C(=O)O)cn3C2CC2)CC(C)(C)N1 | ATCC 5278 (methicillin-resistant) | >100 µg/mL
CCCCCCCCCCSC[N+](C)(C)CCCCCCCC | ATCC 6538 | 26.3 µM
CC1NCc2ccc(-c3c(F)cc4c(=O)c(C(=O)O)cn(C5CC5)c4c3OC(F)F)cc21 | FDA209P | 0.125 µg/mL
CCSCCNc1cc2c(cc1F)c(=O)c(C(=O)O)cn2C1CC1 | ATCC 6538P | >100 µg/mL
O=C(CSc1ccccc1)NC[C@H]1CN(c2ccc(N3CCOCC3)c(F)c2)C(=O)O1 | ATCC 29213 (linezolid-resistant) | >64 µg/mL
CC(C)=CCc1c(O)ccc2c1OC1c3cc4ccoc4cc3OCC21 | - | 72.1 µg/mL
O=C(CC(=O)Nc1cccc(C(F)(F)F)c1)Nc1cccc(C(F)(F)F)c1 | MI273 | >300 µM
CCCCCCCCCCCC[N+](C)(C)COCCCCCCC | ATCC33592 | 1.32 µM
CC(=O)NC[C@H]1CN(c2ccc(Sc3sccc3[N+](=O)[O-])c(F)c2)C(=O)O1 | ATCC 29213 (linezolid-resistant) | >64 µg/mL
C[C@H]1NCc2cc(-c3ccc4c(=O)c(C(=O)O)cn(C5CC5)c4c3OC(F)F)ccc21 | A29030 (methicillin-resistant) | 0.06 µg/mL
O=C(O)NC[C@H]1CC(c2cc(F)c(N3CCOCC3)c(F)c2)=NO1 | UC9218 | 4 µg/mL
CCCCCCCCCCCC[N+](C)(C)COCC(C)CC | ATCC 6538 | 4.29 µM
O=C1O[C@@H](COc2cccnn2)CN1c1ccc(C2=CCOCC2)c(F)c1 | 004 (methicillin quinolone-resistant) | 0.5 µg/mL
O=C(O)NC[C@H]1CC(c2ccc(-n3ccnc3)c(F)c2)=NO1 | UC9213 | 2 µg/mL
CCCCCCCCCCCC[N+](C)(C)COCCC(C)CCCC(C)C | ATCC33592 | 11.9 µM
N#Cc1ccc(N2CCN(c3ccc(N4C[C@H](CNc5cnccn5)OC4=O)cc3F)CC2)nn1 | 122 (novobiocin-resistant) | 2 µg/mL
CC(=O)NC[C@H]1CN(c2ccc(C(=O)NO)c(F)c2)C(=O)O1 | ATCC 29213 (linezolid-resistant) | 64 µg/mL
COc1c(-c2ccc3c(c2)C(C)NC3)c(F)cc2c(=O)c(C(=O)O)cn(C3CC3)c12 | FDA209P | 0.0156 µg/mL
CC(C)=CCc1c(O)c(CC=C(C)C)c2occ(-c3ccc(O)cc3O)c(=O)c2c1O | - | 8.3 µg/mL
CC(=O)NC[C@H]1CN(c2ccc(-n3cnc(C=CC#N)c3)c(F)c2)C(=O)O1 | Oxford | 0.125 µg/mL
O=C(O)c1cn(C2CC2)c2cc(N3CCOCC3)c(F)cc2c1=O | ATCC 5278 (methicillin-resistant) | 0.78 µg/mL
CC(=O)NC[C@H]1CN(c2ccc3c(c2)OCc2nccn2-3)C(=O)O1 | 44 (25508) | 0.5 µg/mL
CC1=NN=C(OC[C@H]2CN(c3ccc(C4=CCOCC4)c(F)c3)C(=O)O2)C1 | 004 (methicillin quinolone-resistant) | 4 µg/mL
CCC(=O)N=C1[C@H](C)C[C@@]2(C)OC/C(=C/C=C/c3ccccc3)COC([C@H]1C)[C@](C)(O)[C@@H](CC)OC(=O)[C@H](C)C(=O)[C@H](C)[C@H]2O[C@@H]1O[C@H](C)C[C@H](N(C)C)[C@H]1O | 27660 (erythromycin-resistant) | 0.5 µg/mL
CO/N=C/c1ccc(C(=O)Nc2ccc(N3C[C@H](CNC(C)=O)OC3=O)cc2F)o1 | ATCC 29213 (linezolid-resistant) | >64 µg/mL
CC(=O)NC[C@H]1CN(c2ccc(C(=O)N3CCOCC3)c(F)c2)C(=O)O1 | ATCC 29213 (linezolid-resistant) | >64 µg/mL
CCCNCCCNc1cc2c(cc1F)c(=O)c(C(=O)O)cn2C1CC1 | ATCC 5278 (methicillin-resistant) | 25 µg/mL
CC[C@H]1OC(=O)[C@H](C)C(=O)[C@H](C)[C@@H](O[C@@H]2O[C@H](C)C[C@H](N(C)C)[C@H]2O)[C@@]2(C)C[C@@H](C)C(=NC(C)=O)[C@H](C)C(OC/C(=C\C#Cc3cccnc3)CO2)[C@]1(C)O | 27660 (erythromycin-resistant) | 0.25 µg/mL
CS(=O)(=O)NC1CCN(c2ccc(N3C[C@H](COc4ccon4)OC3=O)cc2F)CC1 | 078 (oxford) | 8 µg/mL
COc1c(-c2ccc3c(c2)CNC3C)c(F)cc2c(=O)c(C(=O)O)cn(C3CC3)c12 | FDA209P | 0.0156 µg/mL
CC(=O)NC[C@H]1CN(c2ccc(SC3(C)CCOC3=O)c(F)c2)C(=O)O1 | ATCC 29213 (linezolid-resistant) | >64 µg/mL
CC[C@H]1OC(=O)[C@H](C)C(=O)[C@H](C)[C@@H](O[C@@H]2O[C@H](C)C[C@H](N(C)C)[C@H]2O)[C@@]2(C)C[C@@H](C)C(=NC(C)=O)[C@H](C)C(OC/C(=C\C=C\c3ccc(F)cc3)CO2)[C@]1(C)O | 27660 (erythromycin-resistant) | 0.5 µg/mL
CC(=O)NC[C@H]1CN(c2ccc(NC(=O)c3cccnc3)c(F)c2)C(=O)O1 | ATCC 29213 (linezolid-resistant) | >64 µg/mL
CC(C)(O)CCCCNc1cc2c(cc1F)c(=O)c(C(=O)O)cn2C1CC1 | ATCC 5278 (methicillin-resistant) | >100 µg/mL
O=C(CCc1ccccc1)NC[C@H]1CN(c2ccc(N3CCOCC3)c(F)c2)C(=O)O1 | ATCC 29213 (linezolid-resistant) | >64 µg/mL
O=C1O[C@@H](COc2ccccn2)CN1c1ccc(C2=CCOCC2)c(F)c1 | 004 (methicillin quinolone-resistant) | 0.5 µg/mL
CC(=O)NC[C@H]1CN(c2ccc(C(=O)Nc3ncn[nH]3)c(F)c2)C(=O)O1 | ATCC 29213 (linezolid-resistant) | >64 µg/mL
CC[C@H]1OC(=O)[C@H](C)C(=O)[C@H](C)[C@@H](O[C@@H]2O[C@H](C)C[C@H](N(C)C)[C@H]2O)[C@@]2(C)C[C@@H](C)C(=NC(C)=O)[C@H](C)C(OC/C(=C\C=C\c3ccc([N+](=O)[O-])cc3)CO2)[C@]1(C)O | 27660 (erythromycin-resistant) | 0.25 µg/mL
N#Cc1cnn(-c2ccc(C3=NO[C@@H](CNC(=O)O)C3)cc2F)c1 | UC9213 | 2 µg/mL
O=CN(O)CCCP(=O)(O)O | FDA209P JC-1 | >800 µg/mL
O=C(/C=C/c1ccc(F)cc1)NC[C@H]1CN(c2ccc(N3CCOCC3)c(F)c2)C(=O)O1 | ATCC 29213 (linezolid-resistant) | >64 µg/mL
CC(C)=CCc1c(O)ccc2c1OCC1c3cc4c(cc3OC21)OC(C)(C)C=C4 | - | 78.3 µg/mL
CNC(=O)CC1NC(=O)c2nc(sc2COC)C(C(C)C)NC(=O)c2csc(n2)-c2ccc(-c3nc(C4=NC(C(=O)N5CCCC5C(N)=O)CO4)cs3)nc2-c2csc(n2)-c2csc(n2)C(C(O)c2ccccc2)NC(=O)CNC(=O)c2nc1sc2C | ATCC 29213 (linezolid-resistant) | 64 µg/mL
CCC(=O)NC[C@H]1CN(c2ccc(C3CCS(=O)(=O)CC3)c(F)c2)C(=O)O1 | UC 12673 | 4 µg/mL
O=C(CC(=O)Nc1cc(C(F)(F)F)cc(C(F)(F)F)c1)Nc1cccc(C2=NCCN2)c1 | MI273 | 38 µM
O=C(C(O)Cn1cccc1)N1CC=C(c2ccc(N3C[C@H](COc4ccon4)OC3=O)cc2F)CC1 | 122 (novobiocin-resistant) | 2 µg/mL

Repeating the final 8 entries:

{"SMILES": "N#Cc1cnn(-c2ccc(C3=NO[C@@H](CNC(=O)O)C3)cc2F)c1", "strain": "UC9213", "value": "2 µg/mL"}
{"SMILES": "O=CN(O)CCCP(=O)(O)O", "strain": "FDA209P JC-1", "value": ">800 µg/mL"}
{"SMILES": "O=C(/C=C/c1ccc(F)cc1)NC[C@H]1CN(c2ccc(N3CCOCC3)c(F)c2)C(=O)O1", "strain": "ATCC 29213 (linezolid-resistant)", "value": ">64 µg/mL"}
{"SMILES": "CC(C)=CCc1c(O)ccc2c1OCC1c3cc4c(cc3OC21)OC(C)(C)C=C4", "value": "78.3 µg/mL"}
{"SMILES": "CNC(=O)CC1NC(=O)c2nc(sc2COC)C(C(C)C)NC(=O)c2csc(n2)-c2ccc(-c3nc(C4=NC(C(=O)N5CCCC5C(N)=O)CO4)cs3)nc2-c2csc(n2)-c2csc(n2)C(C(O)c2ccccc2)NC(=O)CNC(=O)c2nc1sc2C", "strain": "ATCC 29213 (linezolid-resistant)", "value": "64 µg/mL"}
{"SMILES": "CCC(=O)NC[C@H]1CN(c2ccc(C3CCS(=O)(=O)CC3)c(F)c2)C(=O)O1", "strain": "UC 12673", "value": "4 µg/mL"}
{"SMILES": "O=C(CC(=O)Nc1cc(C(F)(F)F)cc(C(F)(F)F)c1)Nc1cccc(C2=NCCN2)c1", "strain": "MI273", "value": "38 µM"}
{"SMILES": "O=C(C(O)Cn1cccc1)N1CC=C(c2ccc(N3C[C@H](COc4ccon4)OC3=O)cc2F)CC1", "strain": "122 (novobiocin-resistant)", "value": "2 µg/mL"}

Lines come from different laboratories, so protocols vary. An empty or dashed field is not shown.